Source: PubChem BioAssay AID504811 (Drosophila RNAi Screening Center, 2011)
Only reagents picked out of a larger screen are listed. 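Only hits are listed, without non-hit dsRNAs or numeric scores; replicate 2 has entries for just two rows.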 Names joined by + are all predicted targets of the reagent. Reagent sequences are not shown. Not given: the amount of reagent, the time to read-out.

Purpose: 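Fly genes whose silencing alters Listeria monocytogenes infection in cultured cells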 (primary screen)
System: Drosophila SL2 cells
Reagents: long dsRNA against Drosophila genes
Treatment: infection with GFP-expressing Listeria monocytogenes; dose and duration not given
Measurement: 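Cells infected with GFP-tagged Listeria were imaged, and bacterial fluorescence was judged visually against control wells as reduced, increased or clustered in dots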
Hit rule: 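a dsRNA counts as a hit when bacterial fluorescence is plainly weaker, stronger or dotted in clusters relative to control wells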
Meaning of the calls: active = hit; inactive = not a hit

Cdc5 [DRSC08577]
- infection phenotype, replicate 1: less bacterial GFP than control wells (fewer infected cells or weaker signal per cell)
- outcome: active

Trs23 [DRSC03190]
- infection phenotype, replicate 1: less bacterial GFP than control wells (fewer infected cells or weaker signal per cell)
- outcome: active

CG43736 + CG33692 (retired record) [DRSC18370]
- infection phenotype, replicate 1: less bacterial GFP than control wells (fewer infected cells or weaker signal per cell)
- outcome: active

Rpt4 [DRSC18713]
- infection phenotype, replicate 1: less bacterial GFP than control wells (fewer infected cells or weaker signal per cell)
- outcome: active

Rab5 [DRSC00777]
- infection phenotype, replicate 1: less bacterial GFP than control wells (fewer infected cells or weaker signal per cell)
- outcome: active

zetaCOP [DRSC11412]
- infection phenotype, replicate 1: less bacterial GFP than control wells (fewer infected cells or weaker signal per cell)
- outcome: active

pes [DRSC03033]
- infection phenotype, replicate 1: less bacterial GFP than control wells (fewer infected cells or weaker signal per cell)
- outcome: active

Ran [DRSC20364]
- infection phenotype, replicate 1: less bacterial GFP than control wells (fewer infected cells or weaker signal per cell)
- outcome: active

Acp29AB [DRSC01857]
- infection phenotype, replicate 1: bacterial GFP seen as punctate clusters; pointing to bacteria failing to leave the vacuole
- outcome: active

His2B:CG33894 + His2B:CG33872 + His2B:CG33902 + 20 more [DRSC21265]
- infection phenotype, replicate 1: stronger bacterial GFP per infected cell than controls
- outcome: active

RpS15Ab + RpS15Aa [DRSC19831]
- infection phenotype, replicate 1: stronger bacterial GFP per infected cell than controls
- outcome: active

RpL18 [DRSC11016]
- infection phenotype, replicate 1: stronger bacterial GFP per infected cell than controls
- outcome: active

RpL18A [DRSC07538]
- infection phenotype, replicate 1: stronger bacterial GFP per infected cell than controls
- outcome: active

RpL7A [DRSC18709]
- infection phenotype, replicate 1: stronger bacterial GFP per infected cell than controls
- outcome: active

A portion of the results above:
zetaCOP [DRSC11412]
- infection phenotype, replicate 1: less bacterial GFP than control wells (fewer infected cells or weaker signal per cell)
- outcome: active

pes [DRSC03033]
- infection phenotype, replicate 1: less bacterial GFP than control wells (fewer infected cells or weaker signal per cell)
- outcome: active
